Assay results taken from publication PMC8362950 (PLoS ONE, 2021).

Key:
Assay in all cases: purified protein
Details in all cases: pH 7.4
O=C(O)C[C@H](O)C(=O)O = test system: O=C(O)C[C@H](O)C(=O)O
[1] = test system: NC(=O)c1ccc[n+]([C@@H]2O[C@H](COP(=O)(O)OP(=O)(O)OC[C@H]3O[C@@H](n4cnc5c(N)ncnc54)[C@H](O)[C@@H]3O)[C@@H](O)[C@H]2O)c1
O=C(O)CC(=O)C(=O)O = test system: O=C(O)CC(=O)C(=O)O
[2] = test system: NC(=O)C1=CN([C@@H]2O[C@H](COP(=O)(O)OP(=O)(O)OC[C@H]3O[C@@H](n4cnc5c(N)ncnc54)[C@H](O)[C@@H]3O)[C@@H](O)[C@H]2O)C=CC1

Substance | Km (O=C(O)C[C@H](O)C(=O)O) | Km [1] | Km (O=C(O)CC(=O)C(=O)O) | Km [2]
6xHis-CBU0823 (Coxiella burnetii RSA 493) | 0.40 (95% CI 0.01–1.25) mM | 0.31 (95% CI 0.03-undefined) mM | – | –
GST-CBU1241 (Coxiella burnetii RSA 493) | – | – | 0.11 (95% CI 0.07–0.17) mM | 0.12 (95% CI 0.06–0.22) mM
